The values below are quoted from earlier work in PMC11881559 (Antimicrobial Agents and Chemotherapy, 2025).

This series relates to Mpro. The settings on record: compared with nirmatrelvir; cited from earlier work.

`O=C(NC1CCCC1)C(=O)[C@H](C[C@@H]1CCNC1=O)NC(=O)[C@@H]1[C@H]2CCC[C@H]2CN1C(=O)[C@@H](NC(=O)C(F)(F)F)C1CCCCC1` [RAY1216, leritrelvir]: the “effect of mutants E166A/L167F and L50F/E166V on inhibition” value is “weaker effect”.
